Compound potency records, mixed from different reports. Data source: NIAID ChemDB in PubChem.

Common to all: whole-cell or culture tests; species: HIV-1

Lines come from different laboratories, so protocols vary. An empty or dashed field is not shown. ECn: concentration that inhibits the pathogen or its effect by n%.

structure | read by | cells | setting | strain or isolate | measure | mutations | value
CCc1c(C(=O)c2cccc3ccccc23)n(COC)c(=O)[nH]c1=O | cytopathic effect / MTT | MT-4 | - | IIIB | EC50 | - | 5.89 µM
Cc1c(O)cccc1C(=O)N[C@@H](CSc1ccccc1)[C@H](O)CN1C[C@H]2CCCC[C@H]2C[C@H]1C(=O)NC(C)(C)C | - | MT-2 | - | NL4-3 | EC50 | INTG-G140S | 0.03 µM
C=CCn1c(C(=O)c2cccc3ccccc23)c(CC)c(=O)[nH]c1=O | cytopathic effect / MTT | MT-4 | - | IIIB | EC50 | - | 0.6 µM
CCCc1cc(=O)oc2c3c(c4c(c12)OC(C)(C)C=C4)O[C@@H](C)[C@H](C)[C@@H]3O | cytopathic effect / XTT | - | - | - | EC50 | - | 0.3 µM
Nc1ncnc2c(C3CC(CO)(CO)CO3)c[nH]c12 | XTT | CEM | - | - | EC50 | - | 9.3 µg/mL
Cc1cn([C@H]2C[C@H](N=[N+]=[N-])[C@@H](CO)O2)c(=O)[nH]c1=O | RT activity | PBL (resting) + PBL | - | SF162 R5 | EC50 | - | >4 µM
C=CCn1c(C(=O)c2cccc3ccccc23)c(C(C)C)c(=O)[nH]c1=O | cytopathic effect / MTT | MT-4 | - | IIIB | EC50 | - | 0.17 µM
CN(C)C1(c2nc(C(=O)NCc3ccc(F)cc3)c(O)c(=O)[nH]2)CCCC1 | p24 | MT-4 | 10% FBS | IIIB | EC50 | - | <0.06 µM
O=[N+]([O-])c1c(-c2ccccn2)n(COCCO)c2ccccc12 | - | MT-4 | - | - | EC50 | - | >200 µM
Cc1c(O)cccc1C(=O)N[C@@H](CSc1ccc2ccccc2c1)[C@H](O)Cc1ccccc1C(=O)NC(C)(C)C | cytopathic effect | CEM | - | - | EC50 | - | 0.97 µg/mL
CSc1ccn([C@H]2C[C@H](N=[N+]=[N-])[C@@H](CO)O2)c(=O)n1 | cytopathic effect / MTT | CEM-C113 + CEM/C113 | - | LAV-Bru | EC50 | - | 10.6 µM
O=C(OC[C@H]1O[C@@H](OC(=O)c2ccccc2)[C@H](OC(=O)c2ccccc2)[C@@H](O)[C@@H]1O)c1ccccc1 | cytopathic effect | MT-4 | - | IIIB | EC50 | - | >100 µg/mL
O=S(=O)(O)OC1C(OS(=O)(=O)O)C(OS(=O)(=O)O)C(OS(=O)(=O)O)C(OS(=O)(=O)O)C1OS(=O)(=O)O | RT activity | CEM | - | NL4-3 | EC50 | - | >250 µg/mL
O=C(NCCNC(=O)c1cc2cc(O)c(O)cc2[nH]1)c1cc2cc(O)c(O)cc2[nH]1 | MTT | MT-4 | - | IIIB | EC50 | - | >153 µM
CCc1c(C(=O)c2cccc3ccccc23)n(C/C=C/C(=O)OC)c(=O)[nH]c1=O | cytopathic effect / MTT | MT-4 | - | IIIB | EC50 | - | 0.92 µM
Cc1cn([C@H]2C[C@H](N=[N+]=[N-])[C@@H](CO)O2)c(=O)[nH]c1=O | cytopathic effect | - | - | - | EC50 | - | <1 µM
O=c1[nH]cnc2c1ncn2[C@H]1CC[C@@H](CO)O1 | cytopathic effect / MTT | MT-4 | - | IIIB | EC50 | - | 1.6 µM
CN1CCOCC1c1nc(C(=O)NCc2ccc(F)cc2)c(O)c(=O)[nH]1 | p24 | MT-4 | 50% human serum | IIIB | EC50 | - | <0.23 µM
Cc1ccc2c(c1)c1ccc(C)cc1c1ccc(CCCCCN3C(=O)CCC3=O)cc21 | cytopathic effect | MT-4 | - | - | EC50 | - | 30 µM
Oc1ccc(/C=C/c2cc(O)cc(O)c2)cc1 | p24 | PBMC | - | ddI-resistant (RT K65R/L74V/M184V) | EC50 | RT-K65R L74V M184V | >5 µM
Cc1cn([C@H]2C[C@H](N=[N+]=[N-])[C@@H](CO)O2)c(=O)[nH]c1=O | - | MT-2 | - | NL4-3 | EC50 | - | 0.02 µM
COC(=O)[C@H](C)NP(=O)(OC[C@@H]1C=C[C@H](n2cc(C)c(=O)[nH]c2=O)O1)Oc1ccc(Br)cc1 | p24 | PBMC | - | AZT RT-MDR | EC50 | RT M41L L74V T215Y V106N | <0.001 µM
CC(C)(C)NC(=O)c1ccccc1C[C@@H](O)[C@H](CSc1ccc2ccccc2c1)NC(=O)c1cccc2c1CCCN2 | cytopathic effect | CEM | - | - | EC50 | - | 1.9 µg/mL
C[C@H](Cn1cnc2c(N)ncnc21)OCP(=O)(O)O | luciferase | Jurkat cells | - | NL4-3 | EC90 | - | 3.65 µM
COc1cc([C@H]2OC[C@H]3[C@@H]2CO[C@@H]3c2ccc3c(c2)OCO3)cc(OC)c1OC | syncytia | H9 | - | IIIB | EC50 | - | <10.6 µM
Cc1cn([C@H]2C[C@H](N=[N+]=[N-])[C@@H](CO)O2)c(=O)[nH]c1=O | syncytia | HT4lacZ-1/IIIB + HT4 LacZ-1 | - | IIIB | EC50 | - | 0.0012 µM
CC(C)(C)NC(=O)c1ccccc1C[C@@H](O)[C@H](CSc1ccc2ccccc2c1)NC(=O)c1cccc(N)c1Cl | cytopathic effect | CEM | - | - | EC50 | - | 1.5 µg/mL
c1cc2c(cc1[C@H]1OC[C@H]3[C@@H]1CO[C@@H]3c1ccc3c(c1)OCO3)OCO2 | RT activity | H9 | - | IIIB | EC50 | - | <8.2 µM
CN1C2CCC1(c1nc(C(=O)NCc3ccc(F)cc3)c(O)c(=O)[nH]1)CC2 | p24 | MT-4 | 10% FBS | IIIB | EC50 | - | <0.12 µM
O=C(NCCc1ccc(O)c(O)c1)c1cc2cc(O)c(O)cc2[nH]1 | MTT | MT-4 | - | IIIB | EC50 | - | 46 µM
O=c1[nH]cnc2c1ncn2[C@H]1CC[C@@H](CO)O1 | RT activity | PBL (activated) + PBL | - | SF162 R5 | EC50 | - | 11 µM
Nc1ccn([C@H]2CO[C@@H](CO)S2)c(=O)n1 | cytopathic effect / MTT | MT-4 | - | IIIB | EC50 | - | 26 µM
CC(=O)OCCOCn1c(-c2ccccc2)c(Br)c2ccccc21 | - | MT-4 | - | - | EC50 | - | >120 µM
Nc1ccn([C@@H]2CS[C@H](CO)O2)c(=O)n1 | luciferase | Jurkat cells | - | NL4-3 | EC90 | - | 7.7 µM
Cc1c(N)cc(N)cc1C(=O)N[C@@H](CSc1ccc2ccccc2c1)[C@H](O)Cc1ccccc1C(=O)NC(C)(C)C | cytopathic effect | CEM | - | - | EC50 | - | 0.46 µg/mL
COc1cc(C[C@H]2C(=O)OC[C@@H]2Cc2ccc(OC)c(OC)c2)ccc1O | RT activity | H9 | - | IIIB | EC50 | - | <0.13 µM
OC[C@H]1O[C@@H](Oc2ccc(O)c3cccc(O)c23)[C@H](O)[C@@H](O)[C@@H]1O | cytopathic effect | MT-4 | - | IIIB | EC50 | - | >100 µg/mL
CONc1ccn([C@H]2C[C@H](N=[N+]=[N-])[C@@H](CO)O2)c(=O)n1 | cytopathic effect / MTT | CEM-C113 + CEM/C113 | - | LAV-Bru | EC50 | - | 30 µM
CN(C)Cc1ccc(-c2nc(C(=O)NCc3ccc(F)cc3)c(O)c(=O)[nH]2)cc1 | p24 | MT-4 | 10% FBS | IIIB | EC95 | - | >10 µM
O=C(O)c1cc2cc(O)c(O)cc2[nH]1 | MTT | MT-4 | - | IIIB | EC50 | - | 12 µM
Cc1cn([C@H]2C[C@H](N=[N+]=[N-])[C@@H](COC(=O)CCC(=O)Nc3ccn([C@H]4CC[C@@H](CO)O4)c(=O)n3)O2)c(=O)[nH]c1=O | cytopathic effect | - | - | - | EC50 | - | <0.5 µM
CC(C)(C)NC(=O)c1ccccc1C[C@@H](O)[C@H](CSc1ccc2ccccc2c1)NC(=O)c1cccc2c1CCNC2 | cytopathic effect | CEM | - | - | EC50 | - | >50 µg/mL
CCc1c(C(=O)c2cccc3ccccc23)n(Cc2ccccc2)c(=O)[nH]c1=O | cytopathic effect / MTT | MT-4 | - | IIIB | EC50 | - | 1.07 µM
Cc1cn([C@H]2C[C@H](N=[N+]=[N-])[C@@H](CO)O2)c(=O)[nH]c1=O | - | MT-4 | - | - | EC50 | - | >0.01 µM
CN(C)C(C)(c1nc(C(=O)NCc2ccc(F)cc2)c(O)c(=O)[nH]1)C(F)(F)F | p24 | MT-4 | 50% human serum | IIIB | EC50 | - | <1 µM
Cc1cn([C@H]2C[C@H](N=[N+]=[N-])[C@@H](CO)O2)c(=O)[nH]c1=O | - | Monocytes/macrophages | - | DAS | EC50 | - | 0.005 µM
O=C(OC[C@H]1O[C@@H](Oc2ccc(O)c3cccc(O)c23)[C@H](O)[C@@H](O)[C@@H]1O)c1cc(O)c(O)c(O)c1 | cytopathic effect | MT-4 | - | IIIB | EC50 | - | >100 µg/mL
CC(C)=CCN1Cc2cc(Cl)cc3[nH]c(=S)n(c23)C[C@@H]1C | - | MT-4 | - | - | EC95 | RT-D67N K70R T215Y K219Q L100I | >3 µM
Nc1nc(=O)n([C@@H]2CS[C@H](CO)O2)cc1F | luciferase | Jurkat cells | - | NL4-3 | EC90 | - | 0.651 µM

6 of the rows above, restated:

structure | read by | cells | setting | strain or isolate | measure | mutations | value
COc1cc([C@H]2OC[C@H]3[C@@H]2CO[C@@H]3c2ccc3c(c2)OCO3)cc(OC)c1OC | syncytia | H9 | - | IIIB | EC50 | - | <10.6 µM
O=C(OC[C@H]1O[C@@H](Oc2ccc(O)c3cccc(O)c23)[C@H](O)[C@@H](O)[C@@H]1O)c1cc(O)c(O)c(O)c1 | cytopathic effect | MT-4 | - | IIIB | EC50 | - | >100 µg/mL
O=C(OC[C@H]1O[C@@H](OC(=O)c2ccccc2)[C@H](OC(=O)c2ccccc2)[C@@H](O)[C@@H]1O)c1ccccc1 | cytopathic effect | MT-4 | - | IIIB | EC50 | - | >100 µg/mL
Cc1cn([C@H]2C[C@H](N=[N+]=[N-])[C@@H](COC(=O)CCC(=O)Nc3ccn([C@H]4CC[C@@H](CO)O4)c(=O)n3)O2)c(=O)[nH]c1=O | cytopathic effect | - | - | - | EC50 | - | <0.5 µM
COC(=O)[C@H](C)NP(=O)(OC[C@@H]1C=C[C@H](n2cc(C)c(=O)[nH]c2=O)O1)Oc1ccc(Br)cc1 | p24 | PBMC | - | AZT RT-MDR | EC50 | RT M41L L74V T215Y V106N | <0.001 µM
c1cc2c(cc1[C@H]1OC[C@H]3[C@@H]1CO[C@@H]3c1ccc3c(c1)OCO3)OCO2 | RT activity | H9 | - | IIIB | EC50 | - | <8.2 µM